Legend:
[1] = refractive index (Na D-line) (dimensionless); details: 298.15 K; 101.33 kPa; Liquid; Standard Abbe refractometry
[2] = xn = mol fraction of the nth substance listed; details: 298.15 K, 101 kPa, Liquid, Vibrating tube method
[3] = refractive index (Na D-line) (dimensionless); xn = mol fraction of the nth substance listed; details: 298.15 K, 101 kPa, Liquid, Standard Abbe refractometry

CCCCOP(=O)(OCCCC)OCCCC [tributyl phosphate]
Details	refractive index
[1]	1.42252

Details	mass density [kg/m3]
298.15 K, 101.33 kPa, Liquid, Vibrating tube method	972.69

Details	Normal melting temperature [°C]
Crystal, visual observation	-78.84

CCCCOP(=O)(OCCCC)OCCCC [tributyl phosphate] + CCCCCCCCCCO
Details	mass density, [2] [kg/m3]	refractive index, [3]
x1 = 0.0496	835.9	1.4341
x1 = 0.0999	845.2	1.4329
x1 = 0.2008	862.8	1.4307
x1 = 0.3001	879.1	1.429
x1 = 0.4004	894.7	1.4275
x1 = 0.4996	909.3	1.4262
x1 = 0.6007	923.4	1.4252
x1 = 0.6981	936.3	1.4244
x1 = 0.7985	949	1.4236
x1 = 0.9003	961.2	1.423
x1 = 0.9505	967	1.4227

CCCCOP(=O)(OCCCC)OCCCC [tributyl phosphate] + CCCCCCCCO
Details	mass density, [2] [kg/m3]	refractive index, [3]
x1 = 0.0496	833.7	1.427
x1 = 0.0998	844.7	1.4259
x1 = 0.1996	865	1.4243
x1 = 0.2995	883.2	1.4225
x1 = 0.4001	899.7	1.4216
x1 = 0.5002	914.6	1.4213
x1 = 0.5988	928.1	1.4213
x1 = 0.7011	940.9	1.4216
x1 = 0.8011	952.5	1.4219
x1 = 0.9008	963	1.4221
x1 = 0.9513	968	1.4224

CCCCCCCCN(CCCCCCCC)CCCCCCCC [trioctylamine] + CCCCOP(=O)(OCCCC)OCCCC
Details	mass density, [2] [kg/m3]	refractive index, [3]
x1 = 0.0499	959.1	1.4243
x1 = 0.0995	946.5	1.4259
x1 = 0.1998	923.5	1.4286
x1 = 0.3002	903	1.4315
x1 = 0.3997	885	1.4341
x1 = 0.5004	868.6	1.4366
x1 = 0.6001	853.9	1.4391
x1 = 0.7006	840.6	1.4413
x1 = 0.8008	828.5	1.4434
x1 = 0.9009	817.5	1.4454
x1 = 0.9514	812.3	1.4465

Source: the NIST ThermoML archive (doi:10.1021/je900586f)
